# Only a part is listed here, and it is no random draw. Records with an inconclusive call do not appear. Some structures show a salt or complex split into parts, the way the source records it. The source made the active and inactive calls. The call rests on the fitted dose curve.
# Molecular target: Polyprotein P1234 (Chikungunya virus (strain S27-African prototype)) (UniProt Q8JUX6)
# Experiment: Primary qHTS for inhibitors of NSP2Pro chikungunya virus (CHIKV); further: nearly all actives have a fitted effect of over 60% in size
# Conditions: FRET peptide cleavage, fluorescence 1 h; at 24.9 µM (top of the series) unless noted
# On the % scale 0 is the no-effect control and ±100 the full control effect.
row,Structure (SMILES),"activity change, negative = inhibition"
1,C/C1=C2N=C(/C=C3N=C(/C(C)=C4\[N-][C@@](C)([C@@H]5N=C1[C@](C)(CCC(=O)NC[C@@H](C)OP(=O)([O-])O[C@H]1[C@@H](O)[C@@H](n6cnc7cc(C)c(C)cc76)O[C@@H]1CO)[C@H]5CC(N)=O)[C@@](C)(CC(N)=O)[C@@H]4CCC(N)=O)[C@@](C)(CC(N)=O)[C@@H]\3CCC(N)=O)C(C)(C)[C@@H]/2CCC(N)=O.[C-]#N.[Co+3],inactive: -11.4%
2,CCOP(=O)(CC)Oc1ccc([N+](=O)[O-])cc1 (stereo unspecified),inactive: -4.63%
3,CC(C)OP(=O)(F)OC(C)C,inactive: -7.48%
4,C/C1=C2N=C(/C=C3N=C(/C(C)=C4\N=C(C(CC(N)=O)C4(C)CCC(=O)NCC(C)OP(=O)([O-])OC4C(CO)OC(n5cnc6cc(C)c(C)cc65)C4O)C4(C)N=C1C(CCC(N)=O)C4(C)CC(N)=O)C(CCC(N)=O)C\3(C)C)C(CCC(N)=O)C/2(C)CC(N)=O.[C-]#N.[Co] (stereo unspecified),inactive: -11.7% [at 10 µM]
5,O=[N+]([O-])OCC(CO[N+](=O)[O-])(CO[N+](=O)[O-])CO[N+](=O)[O-],inactive: -3.5%
6,O=[N+]([O-])c1cccc([N+](=O)[O-])c1,inactive: -6.21%

# — PubChem BioAssay AID1964107 (National Center for Advancing Translational Sciences (NCATS), 2024)
